Assay results published in paper PMC4735112, “The Functional Unit of Neisseria meningitidis 3-Deoxy-ᴅ-Arabino-Heptulosonate 7-Phosphate Synthase Is Dimeric” (PLoS ONE, 2016).

Key:
C=C(OP(=O)(O)O)C(=O)O = assay: purified protein; conditions: E4P 232 μM, Mn2+ (MnSO4 100 μM), 50 mM BTP pH 6.8, 25 °C, dimer in solution
[1] = test system: O=C[C@H](O)[C@H](O)COP(=O)(O)O; assay: purified protein; conditions: PEP 126 μM, Mn2+ (MnSO4 100 μM), 50 mM BTP pH 6.8, 25 °C, dimer in solution

Substance: NmeDAH7PS (Neisseria meningitidis 3-deoxy-D-arabino-heptulosonate 7-phosphate synthase) (Neisseria meningitidis MC58; R126S)
- Km (C=C(OP(=O)(O)O)C(=O)O): 25 ± 1 µM
- kcat (C=C(OP(=O)(O)O)C(=O)O): 12.6 ± 0.1 s⁻¹
- kcat/Km (C=C(OP(=O)(O)O)C(=O)O): 500000 M⁻¹ s⁻¹
- Km [1]: 13.4 ± 0.3 µM
- kcat [1]: 12.6 ± 0.1 s⁻¹
- kcat/Km [1]: 900000 M⁻¹ s⁻¹
